# Literature values in PMC7961048, “Hierarchized phosphotarget binding by the seven human 14-3-3 isoforms” (Nature Communications, 2021).
# B1: YWHAH (protein, UniProt Q04917 2-246, looked up)
# 14-3-3 protein eta: GDREQLLQRARLAEQAERYDDMASAMKAVTELNEPLSNEDRNLLSVAYKNVVGARRSSWRVISSIEQKTMADGNEKKLEKVKAYREKIEKELETVCNDVLSLLDKFLIKNCNDFQYESKVFYLKMKGDYYRYLAEVASGEKKNSVVEASEAAYKEAFEISKEQMQPTHPIRLGLALNFSVFYYEIQNAPEQACLLAKQAFDDAIAELDTLNEDSYKDSTLIMQLLRDNLTLWTSDQQDEEAGEGN
# Tested on: 14-3-3 isoforms
# Conditions: Figure 4 panel e
molecule,measurement,setting,value
B1,number of interactions per isoform,number of 1433 isoforms 1,46
same,number of interactions per isoform,number of 1433 isoforms 2,67
same,number of interactions per isoform,number of 1433 isoforms 3,63
same,number of interactions per isoform,number of 1433 isoforms 4,68
same,number of interactions per isoform,number of 1433 isoforms 5,114
same,number of interactions per isoform,number of 1433 isoforms 6,26
same,number of interactions per isoform,number of 1433 isoforms 7,14

# Read-outs that look alike come from different tables or passages of the source.
